A mixed list of measured activities; the numbers were collected in NIAID ChemDB.

Common to all: whole-cell or culture tests; agent: Mycobacterium tuberculosis

a–b is a range or a potency band. Neighbouring rows are from separate reports. MIC50, MIC90 and the like: level of inhibition, or share of isolates inhibited. An empty or dashed field is not shown. MIC bound comes from a single tested concentration. Percent inhibition refers to the dose given; in toxicity tests it is the harm to the cells.

smiles	setting	strain	tested at	read-out	read by	value
CC(C)=CCC/C(C)=C/CC/C(C)=C/CC/C(C)=C/CC/C(C)=C/CC/C(C)=C/CC/C(C)=C/CC/C(C)=C/CC[C@H](C)CCOP(=O)(O)C[C@@H]1N[C@H](CO)[C@@H](O)[C@@H]1O	-	H37Rv	-	MIC	-	35 µM
C=C1C[C@]23C(=O)C[C@@H]4[C@H](CCCC4(C)C)[C@H]2CC[C@H]1[C@@H]3O	-	H37Rv	-	MIC	resazurin / absorbance	>50 µg/mL
CN[C@@H]1[C@@H](O)[C@@H](O[C@@H]2[C@@H](O)[C@H](O[C@H]3O[C@H](CN)CC[C@H]3N)[C@@H](N)C[C@H]2N)OC[C@]1(C)O	-	Praha 4	-	MIC	-	0.52 µM
C=C1C[C@@]23CC[C@@H]4[C@@](C)(CO)CCC[C@@]4(C)[C@@H]2[C@@H](OC(C)=O)C[C@@H]1C3	-	H37Ra	-	MIC	resazurin / absorbance	25–50 µg/mL
Cc1csc(NC(=O)c2cncc(Cl)n2)n1	-	H37Rv	6.25 µg/mL	inhibition	-	21%
Cc1ccc(Cn2nnc(-c3cc([N+](=O)[O-])cc([N+](=O)[O-])c3)n2)cc1	21 d	9449/2007	-	MIC	-	0.125 µM
CO[C@H]1/C=C/O[C@@]2(C)Oc3c(C)c(O)c4c(O)c(c5c(c4c3C2=O)NC2(CCN(CC(C)C)CC2)N=5)=NC(=O)/C(C)=C\C=C\[C@H](C)[C@H](O)[C@@H](C)[C@@H](O)[C@@H](C)[C@H](OC(C)=O)[C@@H]1C	-	H37Rv	-	MIC	-	0.035 µg/mL
C=C1C(=O)[C@]23[C@H](O)[C@H]1CC[C@H]2[C@@]1(C)[C@H](C[C@H]3OC(C)=O)C(C)(C)CC[C@H]1OC(C)=O	-	H37Ra	-	MIC	resazurin / absorbance	1.56–3.125 µg/mL
CC/C=C/[C@H](CC)C/C(=C/[C@@]1(CC)C[C@H](CC)[C@H](CC(=O)O)OO1)CC	-	-	64 µg/mL	inhibition	-	78%
O=C(COc1ccc(Br)cc1Br)N1N=C(c2ccc([N+](=O)[O-])o2)CC1(O)c1ccccc1	-	H37Rv	6.25 µg/mL	inhibition	resazurin	6%
CC(C)(C)c1cnc(C(=O)Nc2nccs2)cn1	-	H37Rv	6.25 µg/mL	inhibition	-	47%
C=C1C(=O)[C@@]23[C@H](O)C[C@@H]4[C@@](C)(COC(C)=O)CCC[C@@]4(C)[C@@H]2CC[C@@H]1[C@H]3O	-	H37Ra	-	MIC	resazurin / absorbance	25–50 µg/mL
O=C(Nc1cccc(NC(=O)c2nn[nH]n2)n1)c1nn[nH]n1	-	H37Rv	-	MIC bound	BACTEC	>12.5 µg/mL
CC(C)CN1C(=O)CS/C1=N\NC(=O)COc1cnccn1	-	H37Rv	-	MIC	-	135 µg/mL
C=C1C(=O)[C@@]23[C@@H]4C[C@H]5C(=CCC5(C)C)[C@@](C)(O4)[C@@H]2CC[C@@H]1[C@H]3O	-	H37Rv	-	MIC	resazurin / absorbance	25–50 µg/mL
CCOC(=O)c1cc(-c2ccc(Cl)cc2)n(CC(=O)N/N=C/c2ccc(O)c(OCC)c2)c1C	-	H37Rv (ATCC 27294)	6.25 µg/mL	inhibition	resazurin	55%
CCCCCCCCCCCCCC(=O)OC1(C)c2ccccc2-c2c1c(-n1ccnc1)nc1ccc(Br)cc21	-	H37Rv	-	MIC90	resazurin	>6.25 µg/mL
COc1cc2c(cc1OC)C13CCN4C(=O)C(=O)C(CC41)C1C(OCC(=O)O)CC(=O)N2C13	-	H37Rv	-	MIC bound	BACTEC	>12.5 µg/mL
CO[C@H]1/C=C/O[C@@]2(C)Oc3c(C)c(O)c4c(=O)c(c5oc6cc(N7CCN(CC(C)C)CC7)cc(=O)c6nc5c4c3=C2O)NC(=O)/C(C)=C\C=C\[C@H](C)[C@H](O)[C@@H](C)[C@@H](O)[C@@H](C)[C@H](OC(C)=O)[C@@H]1C	-	Erdman	-	MBC	-	0.008 µg/mL
CO[C@H]1/C=C/O[C@@]2(C)Oc3c(C)c(O)c4c(=O)c(c5oc6cc(N(C)C)cc(=O)c6nc5c4c3=C2O)NC(=O)/C(C)=C\C=C\[C@H](C)[C@H](O)[C@@H](C)[C@@H](O)[C@@H](C)[C@H](OC(C)=O)[C@@H]1C	-	H37Rv	-	MIC	-	0.008 µg/mL
CCOC(=O)c1cc(-c2ccc(C)cc2)n(C(C)C(=O)N=Nc2c(O)[nH]c3ccccc23)c1C	-	H37Rv (ATCC 27294)	6.25 µg/mL	inhibition	resazurin	0%
CC(C)N1C(=O)CS/C1=N\NC(=O)COc1cnccn1	-	H37Rv	-	MIC	-	191 µg/mL
CC(=O)C1C(=O)C(=O)N(Cc2ccccc2)C1=O	-	H37Rv	-	MIC bound	resazurin	>6.25 µg/mL
Cc1cnc(NC(=O)c2cncc(Cl)n2)s1	-	H37Rv	6.25 µg/mL	inhibition	-	15%
CCCCCCCCC(=O)O/N=C1\c2ccccc2-c2c1c(N1CCN(c3ccccn3)CC1)nc1ccc(Br)cc21	-	H37Rv	-	MIC90	resazurin	>6.25 µg/mL
CCOC(=O)Cc1c(C)c2c(O)cc(O)cc2oc1=O	-	H37Rv	12.5 µg/mL	inhibition	BACTEC	-6%
Cc1ccc(-c2cs/c(=N\NC(=O)COc3cnccn3)n2-c2ccc(Cl)cc2[N+](=O)[O-])cc1	-	H37Rv	-	MIC	-	12 µg/mL
COc1ccc2c(c1)CN(c1ccc([N+](=O)[O-])cc1)CO2	-	-	-	MIC	absorbance	6.7 µg/mL
NC(=S)[S-].[NH4+]	-	H37Rv	12.5 µg/mL	inhibition	BACTEC	22%
CC/C=C/C(CC)CCC[C@@]1(CC)C[C@H](CC)[C@H](CC(=O)O)OO1	-	-	64 µg/mL	inhibition	-	83%
CCOC(=O)c1c(C)c(-c2ccc(Cl)cc2)n(CC(=O)N/N=C/c2ccc([N+](=O)[O-])cc2O)c1C	-	H37Rv (ATCC 27294)	6.25 µg/mL	inhibition	resazurin	77%
CC1(C)CCc2cc3c(O)c(-c4ccccc4)c(=O)oc3cc2O1	-	H37Rv	12.5 µg/mL	inhibition	BACTEC	-18%
O=C(Nc1nccs1)c1cnccn1	-	H37Rv	6.25 µg/mL	inhibition	-	0%
COc1ccc2c(c1)CN(c1ccccc1[N+](=O)[O-])CO2	-	-	-	MIC	absorbance	5.6 µg/mL
C[C@H]1COc2c(N3CCN(C)CC3)c(F)cc3c(=O)c(C(=O)O)cn1c23	-	001-005 (DRUG-SUS)	-	MBC	-	2 µg/mL
O=C(O/N=C1\c2ccccc2-c2c1c(N1CCN(c3ccccn3)CC1)nc1ccc(Br)cc21)C1CC1	-	H37Rv	-	MIC90	resazurin	>6.25 µg/mL
C=C1C(=O)[C@]23[C@H](OC(C)=O)[C@H]1CC[C@H]2[C@@]1(C)[C@H](C[C@H]3OC(C)=O)C(C)(C)CC[C@H]1OC(C)=O	-	H37Rv	-	MIC	resazurin / absorbance	1.56–3.125 µg/mL
Cc1ccc(NC(=O)/C(Cc2cc(=O)oc3cc(O)ccc23)=N/NC(=O)C[N+](C)(C)C)cc1C.[Cl-]	-	H37Rv	-	MIC bound	BACTEC	>12.5 µg/mL
C=C1C(=O)[C@]23C[C@H]1CC[C@H]2[C@]1(C)CCC[C@](C)(COC(C)=O)[C@H]1C[C@H]3O	-	H37Rv	-	MIC	resazurin / absorbance	12.5–25 µg/mL
CO[C@H]1/C=C/O[C@@]2(C)Oc3c(C)c(O)c4c(=O)c(c5oc6cc(N7CCOCC7)cc(=O)c6nc5c4c3=C2O)NC(=O)/C(C)=C\C=C\[C@H](C)[C@H](O)[C@@H](C)[C@@H](O)[C@@H](C)[C@H](OC(C)=O)[C@@H]1C	-	H37Rv	-	MIC	-	0.008 µg/mL
CC(C)N=c1cc2n(-c3ccc(Cl)cc3)c3ccccc3nc-2cc1Nc1ccc(Cl)cc1	-	9449/2007	-	MIC	-	0.13 µM
CN(C)c1ccc(/C=N/NC(=S)NC23CC4CC(CC(C4)C2)C3)c(Cl)c1	-	H37Rv	-	MIC bound	BACTEC	>12.5 µg/mL
COc1cccc(NC(=O)c2cncc(Cl)n2)c1	-	H37Rv	6.25 µg/mL	inhibition	-	2%
COc1ccc(-c2cs/c(=N\NC(=O)COc3cnccn3)n2-c2ccc(Cl)cc2Cl)cc1	-	H37Rv	-	MIC	-	15 µg/mL
CO[C@H]1/C=C/O[C@@]2(C)Oc3c(C)c(O)c4c(O)c(c5c(c4c3C2=O)NC2(CCN(CC(C)C)CC2)N=5)=NC(=O)/C(C)=C\C=C\[C@H](C)[C@H](O)[C@@H](C)[C@@H](O)[C@@H](C)[C@H](OC(C)=O)[C@@H]1C	-	29 (rifampicin-resistant)	-	MIC	-	>2 µg/mL
O=C(NNc1nnc(-c2ccccc2)s1)c1ccccc1	-	H37Rv	12.5 µg/mL	inhibition	BACTEC	0%
Cc1cnc(NC(=O)c2cnc(C(C)(C)C)cn2)s1	-	H37Rv	6.25 µg/mL	inhibition	-	65%
CN1CCN(c2cc3c(cc2F)c(=O)c(C(=O)O)cn3C2CC2)CC1CC#N	-	H37Rv	-	MIC bound	BACTEC	>12.5 µg/mL
CC(C)(C)c1ncc(C(=O)Nc2ccccc2Br)nc1Cl	-	H37Rv	6.25 µg/mL	inhibition	-	25%
CCOC(=O)c1cc(-c2ccc(Cl)cc2)n(C(C)C(=O)N/N=C/c2[nH]c(C(=O)OCC)c(C)c2C(=O)OCC)c1C	-	H37Rv (ATCC 27294)	6.25 µg/mL	inhibition	resazurin	68%
Cc1nc(N)c(=O)[nH]c1C	-	H37Rv	12.5 µg/mL	inhibition	BACTEC	-3%
CC(C)CC(NC(=O)OCC1c2ccccc2-c2ccccc21)C(=O)O/N=C1\c2ccccc2-c2c1c(N1CCN(c3ccccn3)CC1)nc1ccc(Br)cc21	-	H37Rv	-	MIC90	resazurin	>6.25 µg/mL
CC(=O)OC(C)C(O)C(O)C(/C=C/C1CC=CC(=O)O1)OC(C)=O	-	H37Rv	12.5 µg/mL	inhibition	BACTEC	12%
Cc1ccc(N2COc3ccccc3C2)cc1	-	-	-	MIC	absorbance	5.56 µg/mL
O=C1CCc2nc(=O)c3c4ccccc4ccc3n21	-	H37Rv	12.5 µg/mL	inhibition	BACTEC	4%
COc1ccc(N2COc3ccc(OC)cc3C2)cc1	-	-	-	MIC	absorbance	5.18 µg/mL
CO[C@H]1/C=C/O[C@@]2(C)Oc3c(C)c(O)c4c(=O)c(c5oc6cc(N7CCCCC7)cc(=O)c6nc5c4c3=C2O)NC(=O)/C(C)=C\C=C\[C@H](C)[C@H](O)[C@@H](C)[C@@H](O)[C@@H](C)[C@H](OC(C)=O)[C@@H]1C	-	H37Rv	-	MIC	-	0.035 µg/mL
NC(N)=NS(=O)(=O)c1ccc(N=C2C(=O)Nc3ccccc32)cc1	-	H37Rv	-	MIC bound	BACTEC	>12.5 µg/mL
CO[C@H]1/C=C/O[C@@]2(C)Oc3c(C)c(O)c4c(=O)c(c5oc6cc(N7CCN(C=O)CC7)cc(=O)c6nc5c4c3=C2O)NC(=O)/C(C)=C\C=C\[C@H](C)[C@H](O)[C@@H](C)[C@@H](O)[C@@H](C)[C@H](OC(C)=O)[C@@H]1C	-	H37Rv	-	MIC	-	0.3 µg/mL
O=C1NNC2NC(=O)C3(NN2C1=O)c1ccccc1-c1ccccc13	-	H37Rv	12.5 µg/mL	inhibition	BACTEC	0%
CCCCCCC(=O)O/N=C1\c2ccccc2-c2c1c(N1CCN(c3ccccn3)CC1)nc1ccc(Br)cc21	-	H37Rv	-	MIC90	resazurin	>6.25 µg/mL
CCCCCC(/C=C/C1C(O[Si](C)(C)C(C)(C)C)CC(N(C)C)C1(C/C=C/CCCC#N)S(=O)(=O)c1ccccc1)O[Si](C)(C)C(C)(C)C	-	H37Rv	-	MIC bound	BACTEC	>12.5 µg/mL
CO[C@H]1/C=C/O[C@@]2(C)Oc3c(C)c(O)c4c(=O)c(c5oc6cc(N7CCN(C(C)C)CC7)cc(=O)c6nc5c4c3=C2O)NC(=O)/C(C)=C\C=C\[C@H](C)[C@H](O)[C@@H](C)[C@@H](O)[C@@H](C)[C@H](OC(C)=O)[C@@H]1C	-	H37Rv	-	MIC	-	0.017 µg/mL
CC(C)C(OC(=O)[C@H](C)NC(=O)C(OC(=O)[C@H](C)NC(=O)OC(C)(C)C)C(C)C)C(=O)O	-	H37Rv	6.25 µg/mL	inhibition	resazurin	18%
O=Nc1c2c(-n3ccnc3)[nH]c3ccc(Br)cc3c-2c2ccccc12	-	H37Rv	-	MIC90	resazurin	<0.39 µg/mL
COc1cc2ccccc2c2cc([N+](=O)[O-])oc12	-	H37Rv	-	MIC bound	resazurin	<6.25 µg/mL
CCCCCCCCCCCCCCC(=O)OC1(C)c2ccccc2-c2c1c(-n1ccnc1)nc1ccc(Br)cc21	-	H37Rv	-	MIC90	resazurin	>6.25 µg/mL
N#Cc1ncc(C(Cl)(Cl)Cl)nc1Cl	-	EMB-R	-	MIC	-	6.3 µg/mL
CCOC(=O)c1c(C)[nH]c(/C=N/NC(=O)Cn2c(C)c(C(=O)OCC)c(C)c2-c2ccc(Cl)cc2)c1C	-	H37Rv (ATCC 27294)	6.25 µg/mL	inhibition	resazurin	97%

A second listing of 6 rows from above:

smiles	setting	strain	tested at	read-out	read by	value
C=C1C(=O)[C@@]23[C@@H]4C[C@H]5C(=CCC5(C)C)[C@@](C)(O4)[C@@H]2CC[C@@H]1[C@H]3O	-	H37Rv	-	MIC	resazurin / absorbance	25–50 µg/mL
Cc1ccc(-c2cs/c(=N\NC(=O)COc3cnccn3)n2-c2ccc(Cl)cc2[N+](=O)[O-])cc1	-	H37Rv	-	MIC	-	12 µg/mL
C=C1C(=O)[C@@]23[C@H](O)C[C@@H]4[C@@](C)(COC(C)=O)CCC[C@@]4(C)[C@@H]2CC[C@@H]1[C@H]3O	-	H37Ra	-	MIC	resazurin / absorbance	25–50 µg/mL
Cc1ccc(N2COc3ccccc3C2)cc1	-	-	-	MIC	absorbance	5.56 µg/mL
COc1cc2c(cc1OC)C13CCN4C(=O)C(=O)C(CC41)C1C(OCC(=O)O)CC(=O)N2C13	-	H37Rv	-	MIC bound	BACTEC	>12.5 µg/mL
CCOC(=O)c1c(C)[nH]c(/C=N/NC(=O)Cn2c(C)c(C(=O)OCC)c(C)c2-c2ccc(Cl)cc2)c1C	-	H37Rv (ATCC 27294)	6.25 µg/mL	inhibition	resazurin	97%